Measured values from several laboratories, pooled; numbers as filed in NIAID ChemDB.

All rows: whole-cell or culture tests; agent: HIV-1; cell line: MT-4; measure: EC50

ECn is the concentration giving n% inhibition of infection, replication or growth. Conditions beyond the fields shown may differ between rows. An empty or dashed field is not shown.

compound	strain or isolate	mutations	read by	value
CCOC(=O)C(=O)CC(=O)c1cccc(Oc2ccnc(Nc3ccc(C#N)cc3)n2)c1	IIIB	K103N	MTT	>14 µM
CNc1cccc2c1nc(-c1c(F)cccc1F)n2Cc1c(F)cccc1F	-	RT-K103N	cytopathic effect / MTT	10.2 µM
COc1ccc(Oc2coc3cc(OC)c(CC=C(C)C)c(O)c3c2=O)c(OC)c1	IIIB	-	cytopathic effect / MTT	>100 µg/mL
CN[C@H]1CO[C@@H]2OCC[C@H](OC(=O)N[C@@H](Cc3ccccc3)[C@H](O)CN(CC(C)C)S(=O)(=O)c3ccc4nc(NC5CC5)sc4c3)[C@@H]21	NL4-3	L10F V32I L33F M46L I54M A71V	p24 / luminescence	0.0044 µM
CC(C)=CCc1cc(-c2cc(=O)c3c(O)c(CC=C(C)C)c(O)cc3o2)ccc1O	IIIB	-	cytopathic effect / MTT	>10 µg/mL
CCCCCCCSc1nsc(NC(=O)Nc2ccccc2)n1	L1	-	cytopathic effect	3.7 µM
COC(=O)N[C@H](C(=O)N[C@@H](Cc1ccccc1)[C@@H](O)CN(Cc1ccc(-c2ccccn2)cc1)NC(=O)[C@@H](NC(=O)OC)C(C)(C)C)C(C)(C)C	NL4-3	-	p24 / luminescence	0.0027 µM
CC(C)=CCc1c(O)c(CC=C(C)C)c2c(c1O)-c1cc(O)c(O)cc1CC2	IIIB	-	cytopathic effect / MTT	>4 µg/mL
CC(C)CN(C[C@@H](O)[C@H](Cc1ccccc1)NC(=O)O[C@H]1CCOC1)S(=O)(=O)c1ccc(N)cc1	NL4-3	L10I M46L I54V V82A	p24 / luminescence	>1 µM
CC(C)CN(C[C@@H](O)[C@H](Cc1ccccc1)NC(=O)O[C@H]1CCOC1)S(=O)(=O)c1ccc(N)cc1	NL4-3	-	cytopathic effect / MTT	0.03 µM
CCc1c(Sc2ccc3ccccc3c2Cl)n(COC)c(=O)[nH]c1=O	IIIB	-	cytopathic effect / MTT	22.66 µM
Cn1ncc2c1S(=O)(=O)N(CCc1ccccc1)C(=O)N2CCc1ccccc1C#N	IIIB	-	MTT	>265.4 µM
Cc1cn([C@H]2C[C@H](N=[N+]=[N-])[C@@H](COP(=O)(O)O)O2)c(=O)[nH]c1=O	899A	-	p24 / antigen / absorbance	0.29 µM
Cc1cccc(C)c1OCC(=O)N[C@@H](Cc1ccccc1)[C@@H](O)C[C@H](Cc1ccccc1)NC(=O)[C@H](C(C)C)N1CCCNC1=O	NL4-3	-	p24 / luminescence	0.024 µM
Cn1ncc2c1S(=O)(=O)N(CCc1ccc(Cl)cc1)C(=O)N2CCc1ccc(Cl)cc1	IIIB	-	MTT	>6.7 µM
CC(C)(C)NC(=O)[C@@H]1C[C@@H]2CCCC[C@@H]2CN1C[C@@H](O)[C@H](Cc1ccccc1)NC(=O)[C@H](CC(N)=O)NC(=O)c1ccc2ccccc2n1	NL4-3	M46I I50V N38K M36I GRL05010-resistant	-	0.036 µM
COc1ccc(S(=O)(=O)N(CC(C)C)C[C@@H](O)[C@H](Cc2ccccc2)NC(=O)O[C@H]2CCO[C@H]3OCC[C@H]32)cc1	NL4-3	L10I I15V K20R L24I V32I M36I M46I L63P K70Q V82A I84V L89M	p24 / luminescence	>1 µM
Cc1cn([C@H]2C[C@H](N=[N+]=[N-])[C@@H](CO)O2)c(=O)[nH]c1=O	IIIB	-	MTT	0.0007 µM
CC(C)=CCc1c(O)ccc(C2COc3c(CC=C(C)C)c(O)cc(O)c3C2=O)c1O	IIIB	-	MTT	>20 µg/mL
COc1ccc(/C=N/NC(=O)c2csc(N3N=C(c4ccccc4)CC3c3ccc(Cl)cc3)n2)cc1O	IIIB	-	MTT / absorbance	>61.75 µM
COC(=O)c1cccc2c1nc(-c1c(F)cccc1F)n2Cc1c(F)cccc1F	-	RT-Y181C	cytopathic effect / MTT	8.4 µM
Cc1ccnc2c1NC(=O)c1cccnc1N2C1CC1	IIIB	F227L + V106A	MTT	>15 µM
CC(C)(C)NC(=O)[C@@H]1CN(Cc2cccnc2)CCN1C[C@@H](O)C[C@@H](Cc1ccccc1)C(=O)N[C@H]1c2ccccc2C[C@H]1O	NL4-3	PR-M46I V82T I84V 10R 63P	cytopathic effect / MTT	0.209 µM
CCn1c(=O)c(C)cn([C@@H]2O[C@H](CO[Si](C)(C)C(C)(C)C)C3(OS(=O)(=O)C=C3N)[C@H]2O[Si](C)(C)C(C)(C)C)c1=O	Recombinant wild type	-	cytopathic effect / MTT	0.06 µM
CC(=O)Nc1cccc2c1nc(-c1c(F)cccc1F)n2Cc1c(F)cccc1F	-	RT-L100I	cytopathic effect / MTT	31.6 µM
CC(C)=CCN1Cc2cc(Cl)cc3[nH]c(=S)n(c23)C[C@@H]1C	-	RT-D67N K70R T215Y K219Q L100I	-	<3 µM
CC(C)OC(=O)OCOP(=O)(CO[C@H](C)Cn1cnc2c(N)ncnc21)OCOC(=O)OC(C)C	NL4-3	-	cytopathic effect / XTT / absorbance	<0.06 µM
COc1c2c(cc3oc(=O)c4c5ccc(O)cc5oc4c13)OC(C)(C)CC2	IIIB	-	cytopathic effect / MTT	>100 µg/mL
O=C(N/N=C/c1cccc(Cl)c1)c1csc(N2N=C(c3ccccc3)CC2c2ccc(Cl)cc2)n1	IIIB	-	MTT / absorbance	>64.5 µM
Cc1cn([C@H]2C[C@H](N=[N+]=[N-])[C@@H](CO)O2)c(=O)[nH]c1=O	899A	-	p24 / ELISA	0.037 µM
CC(C)Cc1c(Sc2cccc3ccccc23)n(COCc2ccccc2)c(=O)[nH]c1=O	IIIB	-	cytopathic effect / MTT	2.96 µM
CC(C)=CCc1c(O)cc2c(c1O)C(=O)C[C@@H](c1ccc(O)cc1)O2	IIIB	-	MTT	19 µg/mL
CC(C)CN(C[C@@H](O)[C@H](Cc1ccccc1)NC(=O)O[C@H]1CCOC1)S(=O)(=O)c1ccc(N)cc1	NL4-3	M46I I50V N38K M36I GRL05010-resistant	-	>1 µM
O=c1[nH]c(=S)[nH]c2c1C(c1ccc(Cl)cc1)c1c([nH]c(=S)[nH]c1=O)O2	L1	-	cytopathic effect	101 µM
CC(C)(C)NC(=O)[C@@H]1C[C@@H]2CCCC[C@@H]2CN1C[C@@H](O)[C@H](Cc1ccccc1)NC(=O)[C@H](CC(N)=O)NC(=O)c1ccc2ccccc2n1	NL4-3	PR-L10R L63P V82T	p24	<0.025 µM
COc1cc(/C=N/NC(=O)c2csc(N3N=C(c4ccccc4)CC3c3ccc(Cl)cc3)n2)ccc1OCc1ccccc1	IIIB	-	MTT / absorbance	>125 µM
CCOCn1c(Sc2ccc3ccccc3c2N)c(CC)c(=O)[nH]c1=O	IIIB	-	cytopathic effect / MTT	7.06 µM
Nc1cccc2c1nc(-c1c(F)cccc1F)n2Cc1c(F)cccc1F	-	RT-V179D	cytopathic effect / MTT	0.3 µM
O=C(N/N=C/c1ccc(OCc2ccccc2)cc1)c1csc(N2N=C(c3ccccc3)CC2c2ccc(Cl)cc2)n1	IIIB	-	MTT / absorbance	>125 µM
COc1nc(=O)[nH]c2c1C(c1ccc(Br)cc1)c1c(OC)nc(=O)[nH]c1O2	L1	-	cytopathic effect	>309 µM
CC(C)=CCc1c(O)cc2occ(-c3ccc(O)cc3)c(=O)c2c1O	IIIB	-	MTT	>20 µg/mL
CC(C)=CCN1Cc2cc(Cl)cc3[nH]c(=S)n(c23)C[C@@H]1C	Recombinant wild type	-	cytopathic effect / MTT	0.087 µM
Cc1cn([C@H]2C[C@H](N=[N+]=[N-])[C@@H](CO)O2)c(=O)[nH]c1=O	92BR014 (subtype B)	-	MTT	0.001 µg/mL
CC(C)CN(C[C@@H](O)[C@H](Cc1ccccc1)NC(=O)O[C@H]1CO[C@H]2OCC(F)(F)[C@H]21)S(=O)(=O)c1ccc(N)cc1	NL4-3	L10I G48V I54V A71V I84V L90M SQV resistant	-	0.046 µM
Nc1ccn([C@H]2CC[C@@H](CO)O2)c(=O)n1	IIIB	-	MTT	0.126 µg/mL
Cc1cn([C@@H]2O[C@H](CO[Si](C)(C)C(C)(C)C)C3(OS(=O)(=O)C=C3N)[C@H]2O[Si](C)(C)C(C)(C)C)c(=O)n(C)c1=O	Recombinant mutant	RT-E138A	cytopathic effect / MTT	0.646 µM
c1cc(CN2CCCNCCNCCCNCC2)ccc1CN1CCCNCCNCCCNCC1	39RW024 (subtype A)	-	MTT	0.001 µg/mL
COc1ccc2c(c1)N(C(=O)OC(C)C)[C@@H](CSC)C(=S)N2	Recombinant mutant	RT-E138A	cytopathic effect / MTT	0.0035 µM
O=C1C[C@@H](c2ccccc2)Oc2cc(O)cc(O)c21	IIIB	-	MTT	>100 µg/mL
Cc1ccnc2c1NC(=O)c1cccnc1N2C1CC1	L1	-	cytopathic effect	0.1 µM
O=C(N/N=C/c1ccc(F)cc1)c1csc(N2N=C(c3ccccc3)CC2c2ccc(Cl)cc2)n1	IIIB	-	MTT / absorbance	0.5 µM
CNC(=O)OC[C@H]1O[C@@H](n2cc(C)c(=O)[nH]c2=O)C[C@@H]1N=[N+]=[N-]	899A	-	p24 / antigen / absorbance	50 µM
O=c1[nH]cnc2c1ncn2[C@H]1CC[C@@H](CO)O1	Recombinant mutant	RT-E138A	cytopathic effect / MTT	11.2 µM
COCOc1cc(O)c(C(=O)/C=C/c2ccccc2)c(OCOC)c1	IIIB	-	cytopathic effect / MTT	>20 µg/mL
CCc1c(Sc2ccc3ccccc3c2N)n(COC)c(=O)[nH]c1=O	IIIB	-	cytopathic effect / MTT	25.99 µM
C[C@H](Cn1cnc2c(N)ncnc21)OCP(=O)(O)O	NL4-3	K65R	cytopathic effect / XTT / absorbance	11.3 µM
CCOCn1c(Sc2cccc3ccccc23)c(C)c(=O)[nH]c1=O	IIIB	-	cytopathic effect / MTT	0.46 µM
CCN[C@H]1CO[C@@H]2OCC[C@H](OC(=O)N[C@@H](Cc3ccccc3)[C@H](O)CN(CC(C)C)S(=O)(=O)c3ccc4nc(NC5CC5)sc4c3)[C@@H]21	NL4-3	-	p24 / luminescence	0.0033 µM
Cc1ccnc2c1NC(=O)c1cccnc1N2C1CC1	IIIB	-	MTT	0.03 µM
CCN[C@H]1CO[C@@H]2OCC[C@H](OC(=O)N[C@@H](Cc3cccc(OC)c3)[C@H](O)CN(CC(C)C)S(=O)(=O)c3ccc4nc(NC(C)C)sc4c3)[C@@H]21	NL4-3	L10F L33I M36I M46I I54V K55R I62V L63P A71V G73S V82T	p24 / luminescence	0.003 µM
CO[P@](=O)(c1cc(C)cc(/C=C/C#N)c1)c1c(C(N)=O)[nH]c2ccc(Cl)c(F)c12	BH10	Y181C	-	0.0018 µM
CC(C)(C)NC(=O)[C@@H]1C[C@@H]2CCCC[C@@H]2CN1C[C@@H](O)[C@H](Cc1ccccc1)NC(=O)[C@H](CC(N)=O)NC(=O)c1ccc2ccccc2n1	NL4-3	PR-D30N A71V	p24	<0.01 µM
CCc1c(Sc2cccc3ccccc23)n(COCc2cccc(C)c2)c(=O)[nH]c1=O	IIIB	-	cytopathic effect / MTT	0.21 µM
N#Cc1ccc(Nc2nccc(Oc3ccc(C(=O)CC(=O)C(=O)O)cc3)n2)cc1	IIIB	F227L + V106A	MTT	>48 µM
Cn1ncc2c1S(=O)(=O)N(CCc1ccccc1)C(=O)N2CCc1ccc(Cl)cc1Cl	IIIB	-	MTT	>277.2 µM
Nc1ccn([C@H]2CC[C@@H](CO)O2)c(=O)n1	IIIB	-	-	0.35 µM
Cc1c(O)cccc1C(=O)N[C@@H](CSc1ccccc1)[C@H](O)CN1C[C@H]2CCCC[C@H]2C[C@H]1C(=O)NC(C)(C)C	NL4-3 PR-S12T I15V I19L M36I R41K H69K L89M I93L CLONE 6( C )	-	cytopathic effect / MTT	0.0322 µM
CC(C)CN(C[C@@H](O)[C@H](Cc1ccccc1)NC(=O)[C@H](CC(N)=O)NC(=O)c1ccc2ccccc2n1)C(=O)NC(C)(C)C	NL4-3	PR-L63P	p24	<0.2 µM
CC(C)(C)NC(=O)[C@@H]1C[C@@H]2CCCC[C@@H]2CN1C[C@@H](O)[C@H](Cc1ccccc1)NC(=O)[C@H](CC(N)=O)NC(=O)c1ccc2ccccc2n1	NL4-3 B	-	cytopathic effect / MTT	0.0034 µM
Fc1cccc(F)c1[C@H]1SCc2nc3ccccc3n21	IIIB	-	cytopathic effect / MTT	0.2 µg/mL

9 of the rows above, restated:

compound,strain or isolate,mutations,read by,value
CCn1c(=O)c(C)cn([C@@H]2O[C@H](CO[Si](C)(C)C(C)(C)C)C3(OS(=O)(=O)C=C3N)[C@H]2O[Si](C)(C)C(C)(C)C)c1=O,Recombinant wild type,-,cytopathic effect / MTT,0.06 µM
CCc1c(Sc2cccc3ccccc23)n(COCc2cccc(C)c2)c(=O)[nH]c1=O,IIIB,-,cytopathic effect / MTT,0.21 µM
CC(C)CN(C[C@@H](O)[C@H](Cc1ccccc1)NC(=O)O[C@H]1CCOC1)S(=O)(=O)c1ccc(N)cc1,NL4-3,M46I I50V N38K M36I GRL05010-resistant,-,>1 µM
CC(C)=CCc1c(O)cc2c(c1O)C(=O)C[C@@H](c1ccc(O)cc1)O2,IIIB,-,MTT,19 µg/mL
CN[C@H]1CO[C@@H]2OCC[C@H](OC(=O)N[C@@H](Cc3ccccc3)[C@H](O)CN(CC(C)C)S(=O)(=O)c3ccc4nc(NC5CC5)sc4c3)[C@@H]21,NL4-3,L10F V32I L33F M46L I54M A71V,p24 / luminescence,0.0044 µM
Cc1cccc(C)c1OCC(=O)N[C@@H](Cc1ccccc1)[C@@H](O)C[C@H](Cc1ccccc1)NC(=O)[C@H](C(C)C)N1CCCNC1=O,NL4-3,-,p24 / luminescence,0.024 µM
COC(=O)c1cccc2c1nc(-c1c(F)cccc1F)n2Cc1c(F)cccc1F,-,RT-Y181C,cytopathic effect / MTT,8.4 µM
CCOC(=O)C(=O)CC(=O)c1cccc(Oc2ccnc(Nc3ccc(C#N)cc3)n2)c1,IIIB,K103N,MTT,>14 µM
O=C(N/N=C/c1cccc(Cl)c1)c1csc(N2N=C(c3ccccc3)CC2c2ccc(Cl)cc2)n1,IIIB,-,MTT / absorbance,>64.5 µM